Data taken from US20230174488A1 (priority 2020, published 2023).

The chains behind the UniProt entries cited, without tags or fusion partners.
UniProt P08684, whole entry: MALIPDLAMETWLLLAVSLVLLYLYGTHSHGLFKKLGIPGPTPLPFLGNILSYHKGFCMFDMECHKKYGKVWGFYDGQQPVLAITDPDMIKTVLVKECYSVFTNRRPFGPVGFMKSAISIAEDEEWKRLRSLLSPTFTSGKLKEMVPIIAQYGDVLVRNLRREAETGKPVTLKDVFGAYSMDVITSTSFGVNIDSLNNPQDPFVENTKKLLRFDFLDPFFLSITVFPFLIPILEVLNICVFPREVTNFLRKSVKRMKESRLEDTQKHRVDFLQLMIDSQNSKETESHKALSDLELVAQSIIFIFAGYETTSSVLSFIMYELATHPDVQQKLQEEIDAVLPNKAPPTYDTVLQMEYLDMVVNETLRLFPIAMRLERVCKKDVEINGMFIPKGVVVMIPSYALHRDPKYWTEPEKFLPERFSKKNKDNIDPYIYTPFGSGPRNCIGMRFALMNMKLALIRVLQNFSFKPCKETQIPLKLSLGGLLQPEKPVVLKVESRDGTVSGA
UniProt P33261, whole entry: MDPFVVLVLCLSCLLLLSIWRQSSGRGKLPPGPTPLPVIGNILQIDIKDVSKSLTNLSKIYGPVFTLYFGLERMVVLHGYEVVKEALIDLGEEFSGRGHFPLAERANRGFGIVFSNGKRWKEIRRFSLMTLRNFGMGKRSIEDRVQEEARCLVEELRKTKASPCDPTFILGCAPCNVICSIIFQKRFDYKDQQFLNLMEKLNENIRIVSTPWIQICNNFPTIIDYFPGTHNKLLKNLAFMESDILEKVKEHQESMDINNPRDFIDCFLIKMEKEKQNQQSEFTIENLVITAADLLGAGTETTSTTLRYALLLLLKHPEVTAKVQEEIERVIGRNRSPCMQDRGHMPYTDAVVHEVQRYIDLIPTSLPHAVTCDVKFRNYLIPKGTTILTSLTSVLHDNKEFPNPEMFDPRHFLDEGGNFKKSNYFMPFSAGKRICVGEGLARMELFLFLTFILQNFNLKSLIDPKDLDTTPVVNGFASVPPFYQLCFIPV
UniProt P11712, whole entry: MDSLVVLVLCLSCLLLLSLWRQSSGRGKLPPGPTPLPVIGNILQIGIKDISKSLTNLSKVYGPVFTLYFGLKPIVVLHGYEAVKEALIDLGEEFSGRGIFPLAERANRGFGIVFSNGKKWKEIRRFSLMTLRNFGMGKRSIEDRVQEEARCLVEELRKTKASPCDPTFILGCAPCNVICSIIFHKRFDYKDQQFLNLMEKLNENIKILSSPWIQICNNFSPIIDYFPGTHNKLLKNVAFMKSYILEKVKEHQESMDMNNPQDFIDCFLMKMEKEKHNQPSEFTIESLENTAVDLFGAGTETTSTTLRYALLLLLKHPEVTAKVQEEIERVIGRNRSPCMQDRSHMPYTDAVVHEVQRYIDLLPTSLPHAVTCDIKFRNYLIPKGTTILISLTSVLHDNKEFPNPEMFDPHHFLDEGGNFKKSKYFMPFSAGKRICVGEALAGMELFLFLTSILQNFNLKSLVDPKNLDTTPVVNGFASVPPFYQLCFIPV
UniProt P05177, whole entry: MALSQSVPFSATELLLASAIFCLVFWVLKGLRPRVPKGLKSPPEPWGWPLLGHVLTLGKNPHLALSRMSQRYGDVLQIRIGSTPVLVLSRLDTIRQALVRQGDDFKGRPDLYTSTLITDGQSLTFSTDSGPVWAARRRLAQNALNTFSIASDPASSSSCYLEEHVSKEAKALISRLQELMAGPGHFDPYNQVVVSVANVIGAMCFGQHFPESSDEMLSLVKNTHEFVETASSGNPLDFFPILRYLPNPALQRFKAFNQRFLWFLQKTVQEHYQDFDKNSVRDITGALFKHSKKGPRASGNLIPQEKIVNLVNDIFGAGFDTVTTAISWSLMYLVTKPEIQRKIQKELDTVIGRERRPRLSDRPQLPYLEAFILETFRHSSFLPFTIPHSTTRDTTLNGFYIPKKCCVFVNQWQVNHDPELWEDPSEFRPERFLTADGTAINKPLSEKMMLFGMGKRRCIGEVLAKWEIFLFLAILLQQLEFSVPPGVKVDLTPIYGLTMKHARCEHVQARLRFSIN
UniProt P10635, whole entry: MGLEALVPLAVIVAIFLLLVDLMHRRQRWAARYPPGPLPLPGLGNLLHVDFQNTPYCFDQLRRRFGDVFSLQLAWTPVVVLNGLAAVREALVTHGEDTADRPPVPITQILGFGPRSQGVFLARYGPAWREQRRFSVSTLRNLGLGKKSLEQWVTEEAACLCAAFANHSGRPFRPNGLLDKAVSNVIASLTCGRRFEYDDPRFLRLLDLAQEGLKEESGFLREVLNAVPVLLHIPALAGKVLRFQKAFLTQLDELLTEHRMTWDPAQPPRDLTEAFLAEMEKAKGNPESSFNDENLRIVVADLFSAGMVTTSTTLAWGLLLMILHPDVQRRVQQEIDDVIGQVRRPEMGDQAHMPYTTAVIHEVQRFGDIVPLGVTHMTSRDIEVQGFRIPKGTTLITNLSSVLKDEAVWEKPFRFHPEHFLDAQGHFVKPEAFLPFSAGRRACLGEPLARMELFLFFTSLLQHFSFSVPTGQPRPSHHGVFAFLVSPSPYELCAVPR

How the values were obtained:
SARS-CoV-2 M^PRO = SARS-CoV-2 M^PRO (Severe acute respiratory syndrome coronavirus 2, UniProt P0DTD1); conditions: In vitro potency data, 30 min pre-incubation, 25 nM M^pro, 25 µM substrate
CYP 3A4 = CYP 3A4 (Homo sapiens, UniProt P08684); experiment: CYP inhibition assay, 3A4; conditions: read-out: CYP P450 isoform, µM 3A4; human liver microsomes, midazolam substrate
[1] = Microsomal stability, human liver microsomes; assay type: in vitro ADME
CYP 2C19 = CYP 2C19 (Homo sapiens, UniProt P33261); experiment: CYP inhibition assay, 2C19; conditions: read-out: CYP P450 isoform, µM 2C19; human liver microsomes, S-mephenytoin substrate
CYP 2C9 = CYP 2C9 (Homo sapiens, UniProt P11712); conditions: read-out: CYP P450 isoform, µM 2C9; human liver microsomes, diclofenac substrate
Plasma stability, human = assay type: in vitro ADME; conditions: 37° C., 2 µM
Plasma stability, mice = assay type: in vitro ADME; conditions: 37° C., 2 µM
CYP 1A2 = CYP 1A2 (Homo sapiens, UniProt P05177); experiment: CYP inhibition assay, 1A2; conditions: read-out: CYP P450 isoform, µM 1A2; human liver microsomes, phenacetin substrate
[2] = Plasma protein binding, human
[3] = Plasma protein binding, mice
Caco-2 cells = experiment: Caco-2 permeability; assay type: in vitro ADME
[4] = Kinetic solubility in water
PAMPA permeability assay = assay type: in vitro ADME; conditions: pH 7.40, 4 h
CYP 2D6 = CYP 2D6 (Homo sapiens, UniProt P10635); experiment: CYP inhibition assay, 2D6; conditions: read-out: CYP P450 isoform, µM 2D6; human liver microsomes, dextromethorphan substrate

Compound: O=C(NC1CCC(F)(F)CC1)C(c1cncnc1)N(C(=O)[C@H]1CO1)c1ccc(-c2cnco2)cc1 (some centres unmarked) [INSCoV-600R(1)]
- IC50 (SARS-CoV-2 M^PRO): 16700 nM

Compound: O=C(N[C@H]1CCC(F)(F)C1)[C@@H](c1cncnc1)N(C(=O)CCl)c1ccc(-c2cncs2)cc1
- IC50 (SARS-CoV-2 M^PRO): 60 nM

Compound: O=C(N[C@H]1CCOC1)C(c1cnccn1)N(C(=O)CCl)c1ccc(-c2ccno2)cc1 (single isomer, unassigned)
- IC50 (CYP 3A4): 1.57 µM
- IC50 (SARS-CoV-2 M^PRO; listed as INSCoV-601Q(IA)): 39 nM
- IC50 (SARS-CoV-2 M^PRO; listed as INSCoV-601Q(lB)): 71 nM
- MMS, HLM, CLint(mic), (µL/min/mg) [1]: 178,6 µL/min/mg
- IC50 (CYP 2C19): 17.3 µM
- IC50 (CYP 2C9): 20.7 µM
- Plasma stability, human, T½ (Plasma stability, human): 11.6 min
- Plasma stability, mice, T½ (Plasma stability, mice): 6.9 min
- IC50 (CYP 1A2): 38.6 µM
- PPB, human, % Recovery [2]: NA/NA/3.5%
- PPB, mice, % Recovery [3]: NA/NA/3.1%
- efflux ratio (Caco-2 cells): 56.3
- Caco-2, Mean Papp, (10-^6 cm/s), A to B (Caco-2 cells; A to B, 2.00 µM, pH 7.40): 0.0610 10-^6 cm/s
- Kinetic solubility in water [4]: 114 µM
- PAMPA, Mean Pe (PAMPA permeability assay): 0.0708 ×10⁻⁶ cm/s
- IC50 (CYP 2D6): 16.2 µM

Compound: O=C(N[C@H]1CCC(F)(F)C1)[C@H](c1cncnc1)N(C(=O)CCl)c1ccc(-c2cnco2)cc1
- IC50 (SARS-CoV-2 M^PRO): 310 nM

Compound: O=C(NC1CCC(F)(F)CC1)C(c1cncnc1)N(C(=O)CCl)c1ccc(-c2cnc[nH]2)cc1 (centres unmarked)
- IC50 (SARS-CoV-2 M^PRO): 1180 nM

Read-outs that look alike come from different tables or passages of the source.
